A short description of assay [1]: Inhibition of Staphylococcus aureus MurA expressed in Escherichia coli using UNAG and PEP as substrate preincubated for 30 mins in presence of UNAG followed by PEP addition and measured after 15 mins by malachite green colorimetric assay.
The nature of assay [2]: Inhibition of Escherichia coli MurA using UNAG and PEP as substrate preincubated for 30 mins in presence of UNAG followed by PEP addition and measured after 15 mins by malachite green colorimetric assay.

Take `O=C(CBr)c1ccc([N+](=O)[O-])cc1`: the results for the half-maximal inhibitory concentration (IC50) in assay [1] and in assay [2] were 4.12 µM and 5.3 µM, respectively.
